Pooled drug test results. Numbers come from NIAID ChemDB, via PubChem.

Common to all: growth or infection tests; organism: HIV-1; measure: inhibition

Percent inhibition refers to the dose given; in toxicity tests it is the harm to the cells.

COc1c(C)c2c(c(O)c1C/C=C(\C)CCC(=O)O)C(=O)OC2 ; cells: PBL(CD4+) + PBL ; method: RT activity ; tested at: 10 µM ; strain or isolate: SF162 ; value: 100%
N#C/C(=C1\SC(=O)CN1c1ccc(Cl)cc1)c1nc2ccccc2o1 ; cells: CEM ; method: cytopathic effect / XTT ; tested at: 20 µM ; value: 10.24%
Cc1ccc(-c2nnc(-c3cnc4ccccn4c3=O)o2)cc1 ; cells: HeLa ; method: single cycle ; tested at: 100 µM ; strain or isolate: NL4-3 ; value: 29%
O=C(Cc1ccccc1)Nc1nc(-c2ccccc2)cs1 ; cells: TZM-bl ; tested at: 50 µg/mL ; strain or isolate: NL4-3 ; value: 41.32%
CSCSC1=N/C(=C\c2ccc3ccc4cccc5ccc2c3c45)C(=O)N1 ; cells: MT-4 ; method: ELISA / antigen ; tested at: 100 µM ; strain or isolate: IIIB ; value: <30%
O=C1CS/C(=C/c2nc3ccccc3o2)N1 ; cells: CEM ; method: cytopathic effect / XTT ; tested at: 2.01 µM ; value: 6.47%
Nc1ccn([C@H]2CC[C@@H](CO)O2)c(=O)n1 ; cells: MT-2 ; method: RT activity ; tested at: 0.1 µM ; strain or isolate: LAV-1 ; value: 80%
N[C@H]1CONC1=O ; cells: CEM ; method: syncytia ; tested at: 5 µg/mL ; strain or isolate: N1T ; value: 100%
C=C(C)[C@@H]1CC[C@]2(C(=O)O)CC[C@]3(C)C(CCC4[C@@]5(C)CC[C@H](OC(=O)CN(OC)[C@@H]6O[C@H](C)[C@@H](O)[C@H](O)[C@H]6O)C(C)(C)C5CC[C@]43C)C12 ; method: cytopathic effect ; tested at: 10 µM ; strain or isolate: IIIB ; value: 52%
CCN(CC)C(=O)OCC1CN(C(=O)c2cc(OC)c(O)c(OC)c2)CCN1C(=O)c1cc(OC)c(OC)c(OC)c1 ; cells: MDM ; method: RT activity ; tested at: 100 µM ; strain or isolate: BaL ; value: 66%
N#CC(C(=S)NCc1ccc(Cl)cc1)c1nc2ccccc2o1 ; cells: CEM ; method: cytopathic effect / XTT ; tested at: 6.34 µM ; value: 8.38%
O=C(O)C(O)c1ccccc1 ; cells: U87 (CD4+ CXCR4+) + U87 ; method: p24 ; tested at: 1 µg/mL ; strain or isolate: IIIB ; value: 14%
C=C(C)[C@@H]1CC[C@]2(C(=O)O)CC[C@]3(C)C(CCC4[C@@]5(C)CC[C@H](OC(=O)CN(OC)C6O[C@H](CO)[C@@H](O)[C@H](O)[C@H]6O)C(C)(C)C5CC[C@]43C)C12 ; method: cytopathic effect ; tested at: 10 µM ; strain or isolate: IIIB ; value: 2%
COc1ccc(-c2cc(-c3ccc4ccc5cccc6ccc3c4c56)c(C#N)c(N)n2)cc1 ; cells: MT-4 ; method: ELISA / antigen ; tested at: 100 µM ; strain or isolate: IIIB ; value: <30%
O=C(NCCc1ccccc1)Nc1ncco1 ; cells: MT-4 ; method: cytopathic effect / XTT ; tested at: 1 µg/mL ; value: 0%
COc1cc(-c2cc(-c3ccc4ccc5cccc6ccc3c4c56)c(C#N)c(=O)n2C2CC(OC(=O)c3ccc(C)cc3)C(COC(=O)c3ccc(C)cc3)O2)cc(OC)c1OC ; cells: MT-4 ; method: ELISA / antigen ; tested at: 100 µM ; strain or isolate: IIIB ; value: <30%
CCN(CC)C(=O)OCC1CN(C(c2ccccc2)c2ccccn2)CCN1C(=O)c1cc(OC)c(OC)c(OC)c1 ; cells: MDM ; method: RT activity ; tested at: 10 µM ; strain or isolate: BaL ; value: 27%
C=C(C)[C@@H]1CC[C@]2(C(=O)O)CC[C@]3(C)C(CCC4[C@@]5(C)CC[C@H](OC(=O)CN(OC)C6OC[C@@H](O)[C@@H](O)[C@H]6O)C(C)(C)C5CC[C@]43C)C12 ; method: cytopathic effect ; tested at: 10 µM ; strain or isolate: IIIB ; value: 13%
CCOc1cccc(-c2cc(C(=O)N/N=C/c3ccc(OC)c(CN4CCOCC4)c3)c3ccccc3n2)c1 ; cells: MT-2 ; method: p24 ; tested at: 10 µM ; strain or isolate: IIIB ; value: 62.6%
COc1ccc(CC(=O)Nc2nc(-c3ccccc3)cs2)cc1 ; cells: TZM-bl ; tested at: 50 µg/mL ; strain or isolate: NL4-3 ; value: 97.21%
Cc1nc(NC(=O)NCCc2ccccc2)sc1C ; cells: MT-4 ; method: RT activity ; tested at: 10 µg/mL ; value: 91%
CCCCCCCCCCCCC/C=C/[C@@H](O)C(CO)NC(=O)CCCCC(=O)Nc1ccc2[nH]c(C(=O)N3CCN(c4ncccc4NC(C)C)CC3)cc2c1 ; cells: H9 ; method: p24 ; tested at: 0.1 µM ; strain or isolate: IIIB ; value: 59%
O=C(CCCCC(=O)Nc1sc2c(c1C(=O)O)CCCC2)Nc1sc2c(c1C(=O)O)CCCC2 ; cells: MT-2 ; method: p24 ; tested at: 10 µM ; strain or isolate: IIIB ; value: 26.7%
N#Cc1csc(NC(=O)NCCc2ccccc2)n1 ; cells: MT-4 ; method: RT activity ; tested at: 1 µg/mL ; value: 98%
Nc1ccn([C@@H]2C=C(F)[C@H](CO)O2)c(=O)n1 ; cells: PBMC ; method: RT activity ; tested at: 82 µM ; strain or isolate: BRU-184V ; mutations: RT-M184V ; value: 90%
N#CC(C(=S)NCc1ccccc1)c1nc2ccccc2o1 ; cells: CEM ; method: cytopathic effect / XTT ; tested at: 20 µM ; value: 24.55%
CC/C=C\C/C=C\C/C=C\CCCCCCCC(=O)OC[C@@H](CO[C@H]1O[C@H](CS(=O)(=O)O)[C@@H](O)[C@H](O)[C@H]1O)OC(=O)CCCCCCCCCCCCCCC ; cells: CEM ; method: cytopathic effect / XTT ; tested at: 100 µg/mL ; value: 100%
C=C(C)[C@@H]1CC[C@]2(C(=O)O)CC[C@]3(C)C(CCC4[C@@]5(C)CC[C@H](OC(=O)CN(OC)[C@@H]6O[C@H](C(=O)O)[C@@H](O)[C@H](O)[C@H]6O)C(C)(C)C5CC[C@]43C)C12 ; method: cytopathic effect ; tested at: 10 µM ; strain or isolate: IIIB ; value: 9%
CCN(CC)C(=O)OCC1CN(C(=S)c2cc(OC)c(OC)c(OC)c2)CCN1C(=S)c1cc(OC)c(OC)c(OC)c1 ; cells: MDM ; method: RT activity ; tested at: 10 µM ; strain or isolate: BaL ; value: 76%
N#CC1C=Cc2ccccc2N1C(=O)c1ccc(Cl)cc1 ; cells: MT-2 ; method: syncytia ; tested at: 17.8 µM ; strain or isolate: IIIB ; value: 100%
O=C(NCCc1ccccc1)Nc1cncc(Cl)n1 ; cells: MT-4 ; method: cytopathic effect / XTT ; tested at: 100 µg/mL ; value: 38–100%
O=c1c(-c2nnc(-c3ccc(Cl)cc3)s2)cnc2ccccn12 ; cells: HeLa ; method: single cycle ; tested at: 100 µM ; strain or isolate: NL4-3 ; value: 39%
CC(CO)n1cnc2c(Cl)nc(N)nc21 ; cells: MT-2 ; method: RT activity ; tested at: 100 µM ; strain or isolate: LAV-1 ; value: 20%
CCN(CC)C(=O)OCC1CN(C(C#N)(c2ccccc2)c2ccccc2)CCN1C(=O)c1cc(OC)c(OC)c(OC)c1 ; cells: MDM ; method: RT activity ; tested at: 10 µM ; strain or isolate: BaL ; value: 44%
O=C(Cc1ccccc1[N+](=O)[O-])Nc1nc(-c2ccccc2)cs1 ; cells: TZM-bl ; tested at: 50 µg/mL ; strain or isolate: NL4-3 ; value: 58.18%
CCc1nnc(NC(=O)NCCc2ccccc2)s1 ; cells: MT-4 ; method: cytopathic effect / XTT ; tested at: 1 µg/mL ; value: 0%
O=C(Cc1ccc(F)cc1)Nc1nc(-c2ccccc2)cs1 ; cells: TZM-bl ; tested at: 50 µg/mL ; strain or isolate: NL4-3 ; value: 54.82%
COc1ccc(CCNC(=O)c2ccc(C(=O)NCCc3ccc(OC)c(OC)c3)nc2)cc1OC ; cells: MT-2 ; method: p24 ; tested at: 10 µM ; strain or isolate: IIIB ; value: 33.7%
O=C1[C@@H](Cc2ccccc2)NC(=S)N1c1ccccc1 ; cells: MT-4 ; method: RT activity ; tested at: 1 µg/mL ; value: 41%
C=C(C)[C@@H]1CC[C@]2(C(=O)O)CC[C@]3(C)C(CCC4[C@@]5(C)CC[C@H](OC(=O)CN(OC)[C@@H]6O[C@H](CO)[C@@H](O)[C@@H](O)[C@H]6O)C(C)(C)C5CC[C@]43C)C12 ; method: cytopathic effect ; tested at: 10 µM ; strain or isolate: IIIB ; value: 29%
O=c1c(-c2nnc(-c3ccc(Cl)cc3)o2)cnc2ccccn12 ; cells: HeLa ; method: single cycle ; tested at: 100 µM ; strain or isolate: NL4-3 ; value: 26%
O=C(NCCc1ccccc1)Nc1ccccn1 ; cells: MT-4 ; method: cytopathic effect / XTT ; tested at: 10 µg/mL ; value: 2%
CCCCOc1c(OC)cc(C(=O)N2CCN(Cc3ccccc3)CC2COC(=O)N(CC)CC)cc1OC ; cells: MDM ; method: RT activity ; tested at: 5 µM ; strain or isolate: BaL ; value: 40%
C=C(C)[C@@H]1CC[C@]2(C(=O)O)CC[C@]3(C)C(CCC4[C@@]5(C)CC[C@H](OC(=O)CN(OC)[C@@H]6O[C@H](CO)[C@@H](O)[C@@H](O)[C@@H]6O)C(C)(C)C5CC[C@]43C)C12 ; method: cytopathic effect ; tested at: 10 µM ; strain or isolate: IIIB ; value: 6%
C[C@H]1[C@H](O)[C@@H](C)/C=C/C=C/C=C/C=C/C=C/C=C/C=C/[C@H](O[C@@H]2O[C@H](C)[C@@H](O)[C@H](N)[C@@H]2O)C[C@@H]2O[C@](O)(C[C@@H](O)C[C@@H](O)CC[C@H](O)[C@@H](O)C[C@@H](O)CC(=O)O[C@H]1C)C[C@H](O)[C@H]2C(=O)O ; cells: PBMC ; method: p24 / RT activity ; tested at: 2.1 µM ; strain or isolate: 93BR029 CLADE F R5 (NSI) ; value: 90%
O=C(Nc1cc(NC(=O)c2ccccc2)cc(-c2nc3ccccc3c(=O)o2)c1)c1ccccc1 ; cells: MT-2 ; method: p24 ; tested at: 10 µM ; strain or isolate: IIIB ; value: 22.5%
CCCCCCCCCCCCC/C=C/[C@@H](O)[C@H](CO)NC(=O)CCCOc1ccc2[nH]c(C(=O)N3CCN(c4ncccc4NC(C)C)CC3)cc2c1 ; cells: H9 ; method: p24 ; tested at: 0.1 µM ; strain or isolate: IIIB ; value: 76%
CCN(CC)C(=O)OCC1CN(C(=O)c2ccncc2)CCN1C(=O)c1ccncc1 ; cells: MDM ; method: RT activity ; tested at: 100 µM ; strain or isolate: BaL ; value: 35%
CCOc1ccc2nc(NC(=O)NCCc3ccccc3)sc2c1 ; cells: MT-4 ; method: cytopathic effect / XTT ; tested at: 100 µg/mL ; value: 33%
CCc1nn(CCN)c(CC)c1Oc1cc(Cl)cc(C#N)c1 ; cells: SupT1 ; tested at: 0.024 µM ; strain or isolate: RF ; value: 90%
COc1ccc2[nH]c(C(=O)N3CCN(c4ncccc4NC(C)C)CC3)cc2c1 ; cells: H9 ; method: p24 ; tested at: 0.1 µM ; strain or isolate: IIIB ; value: 64%
Nc1ncnc2c1ncn2[C@@H]1O[C@H](COP(=O)(O)O[C@@H]2[C@H](O)[C@@H](COP(=O)(O)O[C@@H]3[C@H](O)[C@@H](COP(=O)(O)O[C@@H]4[C@H](O)[C@@H](CO)O[C@H]4n4cnc5c(N)ncnc54)O[C@H]3n3cnc4c(N)ncnc43)O[C@H]2n2cnc3c(N)ncnc32)[C@@H](O)[C@H]1O ; cells: PBL ; method: syncytia ; tested at: 300 µM ; strain or isolate: IIIB ; value: 2.3%

Repeating the first 7 entries:

COc1c(C)c2c(c(O)c1C/C=C(\C)CCC(=O)O)C(=O)OC2 ; cells: PBL(CD4+) + PBL ; method: RT activity ; tested at: 10 µM ; strain or isolate: SF162 ; value: 100%
N#C/C(=C1\SC(=O)CN1c1ccc(Cl)cc1)c1nc2ccccc2o1 ; cells: CEM ; method: cytopathic effect / XTT ; tested at: 20 µM ; value: 10.24%
Cc1ccc(-c2nnc(-c3cnc4ccccn4c3=O)o2)cc1 ; cells: HeLa ; method: single cycle ; tested at: 100 µM ; strain or isolate: NL4-3 ; value: 29%
O=C(Cc1ccccc1)Nc1nc(-c2ccccc2)cs1 ; cells: TZM-bl ; tested at: 50 µg/mL ; strain or isolate: NL4-3 ; value: 41.32%
CSCSC1=N/C(=C\c2ccc3ccc4cccc5ccc2c3c45)C(=O)N1 ; cells: MT-4 ; method: ELISA / antigen ; tested at: 100 µM ; strain or isolate: IIIB ; value: <30%
O=C1CS/C(=C/c2nc3ccccc3o2)N1 ; cells: CEM ; method: cytopathic effect / XTT ; tested at: 2.01 µM ; value: 6.47%
Nc1ccn([C@H]2CC[C@@H](CO)O2)c(=O)n1 ; cells: MT-2 ; method: RT activity ; tested at: 0.1 µM ; strain or isolate: LAV-1 ; value: 80%

Two numbers with a dash give a range or band. Neighbouring rows are from separate reports.